Data: patent publication EP2654803B1, “RADIOLABELED HER2-BINDING PEPTIDE CONJUGATES” (General Electric Company, priority 2010, dated 2021)

Tests used:
[1] = stability of purified, formulated 67Ga-labeled polypeptide (HPLC); format: physicochemical; settings: formulated in Dulbecco's phosphate buffered saline, pH 6-6.5, RCP = 96% by HPLC
Method: Radiolabeling was subsequently accomplished as follows: 25µl HEPES solution (63mM) was initially added to a screw top vial followed by 10µl ^67GaCl3 (GE Healthcare) in 40.5 MBq of 0.04M HCl. 30 µg (MW = 7506, 4.0×10^-9 mol) of the NOTA Z00477 (SEQ. ID No. 3) in 30 µl H2O was then added to the reaction mixture to give a final NOTA Z00477 (SEQ. ID No. 3) concentration of 61 µM with a pH of 3.5-4.0. The reaction vial was sealed and the reaction maintained at ambient temperature. Reverse phase HPLC analysis of the crude reaction mixture determined the radiochemical purity of the ^67Ga-NOTA Z00477 (SEQ. ID No. 3) was determined to be 95% by HPLC after 2 hours at room temperature. (Fig. 21) The ^67Ga-NOTA Z00477 (SEQ. ID No. 3) was purified by HPLC after a reaction time of 1 day. 22MBq of ^67Ga-NOTA Z00477 (SEQ. ID No. 3) was injected onto the HPLC for the purification. 15MBq of the ^67Ga labeled product was obtained from the purification (radiochemical yield = 68%). HPLC solvents were removed under vacuum to give a solution with an approximate volume of 0.5 mL. Approximately 1.45 mL of Dulbecco's phosphate buffered saline was then added to give a final solution at pH 6-6.5 with a radioactivity concentration of 7.7 MBq/mL. […] (RCP = 96% by HPLC) (Fig. 22). Analytical HPLC conditions used are as follows: A Grace Vydac C4 protein 5 micron, 300Å, 4.6 x 250 mm HPLC column. […]

SKOV3 tumors = test system: SKOV3 tumors; set-up: species or system female CD-1 nude mice; settings: mouse, in vivo
Method: Labeling of His6 (SEQ ID NO: 7)-tagged Polypeptides with the fac-[^99mTc(CO)3]^+ core was accomplished using modifications to a previously published procedure (Waibel, R.; et al., A. Nat. Biotechnol. 1999, 17, 897.). Briefly, Na[^99mTcO4] in saline (4 mCi, 2 mL) was added to an Isolink® boranocarbonate kit (Alberto, R. et al, J. Am. Chem. Soc. 2001, 123, 3135.). The resulting solution was heated to 95°C for 15-20 minutes, to give fac-[^99mTc(CO)3(H2O)3]^+. A portion (2 mCi, 1 mL) of the solution was removed and neutralized to pH ∼7 with 1 N HCl. A 325 µL aliquot was removed and added to a solution of the His6-Polypeptide (SEQ ID NO: 7) (40 µg). The resulting solution was heated in a water bath at 35-37°C for 40 minutes. Typical radiochemical yields ranged from 80-95% (determined by ITLC-SG, Biodex, 0.9% NaCl). […]
Mice were given tail-vein injections of ∼1 µg of ^99mTc-labeled polypeptides (∼3 µCi/1 µg). […] Three mice were euthanized at each timepoint and tissues of interest dissected and counted on a Perkin Elmer Wallac Wizard 1480 Gamma Counter. […] Urine from cages was pooled with the bladder and also counted. The remaining tissues were counted and the sum of all tissues plus urine for each animal was summed to provide the total injected dose. The % injected dose for each organ was determined based on this total, and organs were weighed for determination of the % injected dose per gram, (%ID/g). […]

Substance	stable at room temperature [1]	peak tumor: blood ratio (SKOV3 tumors)
^67Ga-NOTA Z00477 (SEQ. ID No. 3): Z00477 polypeptide conjugated with Mal-NOTA and labeled with 67Ga	at least 2 hr	–
Z00477 (SEQ. ID No. 3) His6 (SEQ ID NO: 7)tagged: His6-tagged Z00477 polypeptide labeled with the fac-[99mTc(CO)3]+ core	–	more than 8
